Results of unrelated studies side by side (data: NIAID ChemDB).

Shared fields: enzyme or target tests; species: HIV-1; target: Reverse transcriptase; read-out: inhibition

Blank or dashed fields: not listed here. Percent inhibition refers to the dose given; in toxicity tests it is the harm to the cells. Rows are shuffled and stem from different studies.

| compound | changes | read by | dose | value |
|---|---|---|---|---|
| Cc1cc(O)c2c(c1Cl)C(=O)C=CC2=O | - | RT activity | 100 µg/mL | 95% |
| O=c1c2cc(O)ccc2oc2cc(O)cc(O)c12 | - | RT activity / radiometric | 200 µg/mL | 80.28% |
| Cc1cc(O)c2c(c1F)C(=O)C=CC2=O | - | RT activity | 50 µg/mL | 85% |
| O=C1CSC(c2c(Cl)ncnc2Cl)N1c1nccs1 | - | RT activity / ELISA / absorbance | 10 µg/mL | 3.9% |
| O=C1CSC2(CCCCC2)N1Cc1ccco1 | - | ELISA | 10 µg/mL | 0% |
| O=C1CSC(c2c(Cl)cncc2Cl)N1n1cnnc1 | - | RT activity / ELISA / absorbance | 10 µg/mL | 25.31% |
| CCc1c(Sc2ccccn2)n(COCc2ccccc2)c(=O)[nH]c1=O | RT-P236L | - | 50 µM | 90% |
| COc1cc(OC)nc(N2C(=O)CSC2c2c(Cl)ncnc2Cl)n1 | - | RT activity / ELISA / absorbance | 100 µg/mL | 61.38% |
| COc1cc(OC)c(C2SCC(=O)N2c2cccc(C)n2)c(OC)c1 | - | ELISA | 10 µg/mL | 48.75% |
| Cc1cc(O)c2c(c1Br)C(=O)C=CC2=O | - | RT activity | 50 µg/mL | 51% |
| O=C1CSC(c2ccnc3ccccc23)N1Cc1ccco1 | - | ELISA | 10 µg/mL | 9.99% |
| C1=Cc2cccnc2N(C2CC2)c2ncccc21 | RT-K103N | nucleotide incorporation | 1 µM | 73% |
| CC/C=C\C/C=C\C/C=C\CCCCCCCC(=O)OC[C@H](CO[C@@H]1O[C@H](CO)[C@H](O)[C@H](O)[C@H]1O)OC(=O)CCCCCCCCCCCCCCC | - | nucleotide incorporation / radiometric | 10 µM | 65% |
| O=C1CCSC(c2c(F)cccc2F)N1Cc1ccco1 | - | ELISA | 10 µg/mL | 51.6% |
| O=C1CSC(c2c(F)cccc2F)N1n1cnnc1 | - | RT activity / ELISA / absorbance | 10 µg/mL | 10.53% |
| O=C(c1cc(O)cc(O)c1)c1c(O)cc(O)cc1O | - | RT activity / radiometric | 200 µg/mL | 95.68% |
| O=C1CSC(c2c(F)cccc2F)N1c1cccc(C(F)(F)F)c1 | - | ELISA | 10 µg/mL | 0% |
| COc1c2c(c(C(=O)c3ccccc3)c3c1C=CC(C)(C)O3)OC(C)(C)C=C2 | - | RT activity / radiometric | 200 µg/mL | 4.83% |
| Cc1nc(N2C(=O)CSC2c2c(F)cccc2Cl)ccc1Br | - | ELISA | 10 µg/mL | 59.4% |
| Cc1cc2c(c(O)c1-c1c(C)cc(O)c3c1C(=O)C=CC3=O)C(=O)C=CC2=O | - | RT activity | 100 µg/mL | 10% |
| COc1cc2oc3c4c(ccc3c(=O)c2c2c1C=CC(C)(C)O2)OCO4 | - | RT activity / radiometric | 200 µg/mL | 36.42% |
| CN(C)c1ccc(C2SCC(=O)N2Cc2ccco2)cc1 | - | ELISA | 10 µg/mL | 33.36% |

For reference, 2 entries again:

compound | changes | read by | dose | value
O=C1CSC2(CCCCC2)N1Cc1ccco1 | - | ELISA | 10 µg/mL | 0%
CN(C)c1ccc(C2SCC(=O)N2Cc2ccco2)cc1 | - | ELISA | 10 µg/mL | 33.36%